# Measured values as given in patent US20250115620A1, “BRIDGED TRICYCLIC CARBAMOYLPYRIDONE COMPOUNDS AND USES THEREOF” (Gilead Sciences, Inc., priority 2022, published 2025).
# Test system: pLAI reporter virus
# Type: cell-based, HIV
# Settings: EC50 (50% HS)/EC50 (CCM)
row,SMILES,RLUC 50% HS Shift [×]
1,"C[C@H]1CC[C@]2(CC(=O)N(Cc3cccc4[nH]cnc34)O2)[C@H]2CN1C(=O)c1c(O)c(=O)c(C(=O)NCc3c(F)cc(F)cc3F)cn12 [Example 114, (3′S,5S,7′R)-2-((1H-benzo[d]imidazol-4-yl)methyl)-12′-hydroxy-3′-methyl-1′,3,11′-trioxo-N-(2,4,6-trifluorobenzyl)-1′,4′,5′,11′-tetrahydro-3′H,7′H-spiro[isoxazolidine-5,6′-[2,7]methanopyrido[1,2-a][1,4]diazonine]-10′-carboxamide]",3
2,"C[C@H]1CC[C@]2(CC(=O)N(Cc3ccc(C#N)cc3)O2)[C@H]2CN1C(=O)c1c(O)c(=O)c(C(=O)NCc3c(F)cc(F)cc3F)cn12 [Example 118, (3′S,5S,7′R)-2-(4-cyanobenzyl)-12′-hydroxy-3′-methyl-1′,3,11′-trioxo-N-(2,4,6-trifluorobenzyl)-1′,4′,5′,11′-tetrahydro-3′H,7′H-spiro[isoxazolidine-5,6′-[2,7]methanopyrido[1,2-a][1,4]diazonine]-10′-carboxamide]",1
3,"COc1ccc(CN2O[C@@]3(CC[C@H](C)N4C[C@H]3n3cc(C(=O)NCc5c(F)cc(F)cc5F)c(=O)c(O)c3C4=O)CC2=O)cc1 [Example 119, (3′S,5S,7′R)-12′-hydroxy-2-(4-methoxybenzyl)-3′-methyl-1′,3,11′-trioxo-N-(2,4,6-trifluorobenzyl)-1′,4′,5′,11′-tetrahydro-3′H,7′H-spiro[isoxazolidine-5,6′-[2,7]methanopyrido[1,2-a][1,4]diazonine]-10′-carboxamide]",5
4,"C[C@H]1CC[C@]2(CCC(=O)N2)[C@H]2CN1C(=O)c1c(O)c(=O)c(C(=O)NCc3c(F)cc(F)cc3F)cn12 [Example 121, (2S,3′S,7′R)-12′-hydroxy-3′-methyl-1′,5,11′-trioxo-N-(2,4,6-trifluorobenzyl)-1′,4′,5′,11′-tetrahydro-3′H,7′H-spiro[pyrrolidine-2,6′-[2,7]methanopyrido[1,2-a][1,4]diazonine]-10′-carboxamide]",1
5,"C[C@H]1CC[C@]2(CCCN2)[C@H]2CN1C(=O)c1c(O)c(=O)c(C(=O)NCc3c(F)cc(F)cc3F)cn12 [Example 122, (2R,3′S,7′R)-12′-hydroxy-3′-methyl-1′,11′-dioxo-N-(2,4,6-trifluorobenzyl)-1′,4′,5′,11′-tetrahydro-3′H,7′H-spiro[pyrrolidine-2,6′-[2,7]methanopyrido[1,2-a][1,4]diazonine]-10′-carboxamide]",8
6,"C[C@H]1CC[C@@]2(CC(O)CO2)[C@H]2CN1C(=O)c1c(O)c(=O)c(C(=O)NCc3c(F)cc(F)cc3F)cn12 (stereo partly drawn) [Example 123, (2R,3′S,7′R)-4,12′-dihydroxy-3′-methyl-1′,11′-dioxo-N-(2,4,6-trifluorobenzyl)-1′,4,4′,5,5′,11′-hexahydro-3H,3′H,7′H-spiro[furan-2,6′-[2,7]methanopyrido[1,2-a][1,4]diazonine]-10′-carboxamide]",1
7,"CC1C[C@@]2(CC[C@H](C)N3C[C@H]2n2cc(C(=O)NCc4c(F)cc(F)cc4F)c(=O)c(O)c2C3=O)OCO1 (stereo partly drawn) [Example 124, (3′S,4R,7′R)-12′-hydroxy-3′,6-dimethyl-1′,11′-dioxo-N-(2,4,6-trifluorobenzyl)-1′,4′,5′,11′-tetrahydro-3′H,7′H-spiro[[1,3]dioxane-4,6′-[2,7]methanopyrido[1,2-a][1,4]diazonine]-10′-carboxamide]",2
8,"C[C@H]1CCC2(OCCO2)[C@H]2CN1C(=O)c1c(O)c(=O)c(C(=O)NCc3c(F)cc(F)cc3F)cn12 [Example 125, (3′S,7′R)-12′-hydroxy-3′-methyl-1′,11′-dioxo-N-(2,4,6-trifluorobenzyl)-1′,4′,5′,11′-tetrahydro-3′H,7′H-spiro[[1,3]dioxolane-2,6′-[2,7]methanopyrido[1,2-a][1,4]diazonine]-10′-carboxamide]",151
9,"C[C@H]1CO[C@]2(CC[C@H](C)N3C[C@H]2n2cc(C(=O)NCc4c(F)cc(F)cc4F)c(=O)c(O)c2C3=O)O1 [Example 127, (2R,3′S,4S,7′R)-12′-hydroxy-3′,4-dimethyl-1′,11′-dioxo-N-(2,4,6-trifluorobenzyl)-1′,4′,5′,11′-tetrahydro-3′H,7′H-spiro[[1,3]dioxolane-2,6′-[2,7]methanopyrido[1,2-a][1,4]diazonine]-10′-carboxamide]",133
10,"C[C@H]1CCC2(OCCCO2)[C@H]2CN1C(=O)c1c(O)c(=O)c(C(=O)NCc3c(F)cc(F)cc3F)cn12 [Example 128, (3′S,7′R)-12′-hydroxy-3′-methyl-1′,11′-dioxo-N-(2,4,6-trifluorobenzyl)-1′,4′,5′,11′-tetrahydro-3′H,7′H-spiro[[1,3]dioxane-2,6′-[2,7]methanopyrido[1,2-a][1,4]diazonine]-10′-carboxamide]",92
11,"C[C@H]1CCC2(OCCO2)[C@H]2CN1C(=O)c1c(O)c(=O)c(C(=O)NCc3ccc(F)cc3F)cn12 [Example 129, (3′S,7′R)—N-(2,4-difluorobenzyl)-12′-hydroxy-3′-methyl-1′,11′-dioxo-1′,4′,5′,11′-tetrahydro-3′H,7′H-spiro[[1,3]dioxolane-2,6′-[2,7]methanopyrido[1,2-a][1,4]diazonine]-10′-carboxamide]",40
12,"C[C@H]1CC[C@]2(COCO2)[C@H]2CN1C(=O)c1c(O)c(=O)c(C(=O)NCc3c(F)cc(F)cc3F)cn12 [Example 130, (3′S,4R,7′R)-12′-hydroxy-3′-methyl-1′,11′-dioxo-N-(2,4,6-trifluorobenzyl)-1′,4′,5′,11′-tetrahydro-3′H,7′H-spiro[[1,3]dioxolane-4,6′-[2,7]methanopyrido[1,2-a][1,4]diazonine]-10′-carboxamide]",1815
13,"C[C@H]1CC[C@@]2(COCO2)[C@H]2CN1C(=O)c1c(O)c(=O)c(C(=O)NCc3c(F)cc(F)cc3F)cn12 [Example 131, (3′S,4S,7′R)-12′-hydroxy-3′-methyl-1′,11′-dioxo-N-(2,4,6-trifluorobenzyl)-1′,4′,5′,11′-tetrahydro-3′H,7′H-spiro[[1,3]dioxolane-4,6′-[2,7]methanopyrido[1,2-a][1,4]diazonine]-10′-carboxamide]",16
14,"C[C@@H]1OC[C@]2(CC[C@H](C)N3C[C@H]2n2cc(C(=O)NCc4c(F)cc(F)cc4F)c(=O)c(O)c2C3=O)O1 [Example 133, (2R,3′S,4R,7′R)-12′-hydroxy-2,3′-dimethyl-1′,11′-dioxo-N-(2,4,6-trifluorobenzyl)-1′,4′,5′,11′-tetrahydro-3′H,7′H-spiro[[1,3]dioxolane-4,6′-[2,7]methanopyrido[1,2-a][1,4]diazonine]-10′-carboxamide]",205
15,"C[C@H]1CC[C@]2(CO[C@H](Cc3ccccc3)O2)[C@H]2CN1C(=O)c1c(O)c(=O)c(C(=O)NCc3c(F)cc(F)cc3F)cn12 [Example 134, (2S,3′S,4R,7′R)-2-benzyl-12′-hydroxy-3′-methyl-1′,11′-dioxo-N-(2,4,6-trifluorobenzyl)-1′,4′,5′,11′-tetrahydro-3′H,7′H-spiro[[1,3]dioxolane-4,6′-[2,7]methanopyrido[1,2-a][1,4]diazonine]-10′-carboxamide]",3
16,"C[C@H]1CC[C@]2(COC(Cc3ccccc3)O2)[C@H]2CN1C(=O)c1c(O)c(=O)c(C(=O)NCc3c(F)cc(F)cc3F)cn12 (stereo partly drawn) [Example 135, (2R,3′S,4R,7′R)-2-benzyl-12′-hydroxy-3′-methyl-1′,11′-dioxo-N-(2,4,6-trifuorobenzyl)-1′,4′,5′,11′-tetrahydro-3′H, 7′H-spiro(f[,3]dioxolane-4,6′-[2,7]methanopyrido[1,2-a][1,4]diazonine]-10′-carboxamide]",224
17,"C[C@H]1CC[C@@]2(COC(Cc3ccccc3)O2)[C@H]2CN1C(=O)c1c(O)c(=O)c(C(=O)NCc3c(F)cc(F)cc3F)cn12 (stereo partly drawn) [Example 136, (3′S,4S,7′R)-2-benzyl-12′-hydroxy-3′-methyl-1′,11′-dioxo-N-(2,4,6-trifluorobenzyl)-1′,4′,5′,11′-tetrahydro-3′H,7′H-spiro[[1,3]dioxolane-4,6′-[2,7]methanopyrido[1,2-a][1,4]diazonine]-10′-carboxamide]",5
18,"C[C@H]1CC[C@]2(COC(C)(C)O2)[C@H]2CN1C(=O)c1c(O)c(=O)c(C(=O)NCc3c(F)cc(F)cc3F)cn12 [Example 137, (3′S,4R,7′R)-12′-hydroxy-2,2,3′-trimethyl-1′,11′-dioxo-N-(2,4,6-trifluorobenzyl)-1′,4′,5′,11′-tetrahydro-3′H,7′H-spiro[[1,3]dioxolane-4,6′-[2,7]methanopyrido[1,2-a][1,4]diazonine]-10′-carboxamide]",44
19,"C[C@H]1CC[C@@]2(COC(C)(C)O2)[C@H]2CN1C(=O)c1c(O)c(=O)c(C(=O)NCc3c(F)cc(F)cc3F)cn12 [Example 138, (3′S,4S,7′R)-12′-hydroxy-2,2,3′-trimethyl-1′,11′-dioxo-N-(2,4,6-trifluorobenzyl)-1′,4′,5′,11′-tetrahydro-3′H,7′H-spiro[[1,3]dioxolane-4,6′-[2,7]methanopyrido[1,2-a][1,4]diazonine]-10′-carboxamide]",26
20,"C[C@H]1CC[C@]2(COCCO2)[C@H]2CN1C(=O)c1c(O)c(=O)c(C(=O)NCc3c(F)cc(F)cc3F)cn12 [Example 139, (2R,3′S,7′R)-12′-hydroxy-3′-methyl-1′,11′-dioxo-N-(2,4,6-trifluorobenzyl)-1′,4′,5′,11′-tetrahydro-3′H,7′H-spiro[[1,4]dioxane-2,6′-[2,7]methanopyrido[1,2-a][1,4]diazonine]-10′-carboxamide]",837
21,"C[C@H]1CC[C@@]2(COCCO2)[C@H]2CN1C(=O)c1c(O)c(=O)c(C(=O)NCc3c(F)cc(F)cc3F)cn12 [Example 140, (2S,3′S,7′R)-12′-hydroxy-3′-methyl-1′,11′-dioxo-N-(2,4,6-trifluorobenzyl)-1′,4′,5′,11′-tetrahydro-3′H,7′H-spiro[[1,4]dioxane-2,6′-[2,7]methanopyrido[1,2-a][1,4]diazonine]-10′-carboxamide]",17
